In publication PMC6394985:

How the values were obtained:
[1] = target: RcsB (His6-RcsB) (Klebsiella pneumoniae CG43S3) (UniProt W1DMM9); assay: EMSA; conditions: no acetyl phosphate, 20 ul: 0.5 mM MgCl2, 0.1% Nonidet P-40, 0.05 mg/ml BSA, 50 ng/ul sheared salmon sperm DNA, 5% glycerol, 5% native PAGE, salt and temperature not stated, recombinant protein, protein details: His6 (pET30a), probe letters rebuilt from the primers and the genome
[2] = target: RcsB (His6-RcsB) (Klebsiella pneumoniae CG43S3) (UniProt W1DMM9); assay: competition with a labelled probe; conditions: 20 ul: 0.5 mM MgCl2, 0.1% Nonidet P-40, 0.05 mg/ml BSA, 50 ng/ul sheared salmon sperm DNA, 5% glycerol, 5% native PAGE, salt and temperature not stated, recombinant protein, protein details: His6 (pET30a), probe letters rebuilt from the primers and the genome

Sequence: GGATCCGCTATCTGTTGCCCATACCGGAGAGGTACTCATCATGGTTGCCAGCAGGCTCGCCAGAATGACTTTTTTCATCGTTGACTCCTGATTAAAATCGGTAAGCATCACCAAACGCAGCCAGCTTAAAAAATATCGTGGGCATTGAGAATCAGAGCCCGGAAGTAATATTGCGGGCCTGGTCTGACAGCTGTCAGACCAGGCGTATAAAGTGGCCTCGGCGCTCTTATTTACGCCTGCCGATCGCGCGGCCTACTATTTTCCTCAGACCTTTCTTTTGGCCCGCTGAATAAACCCTCACGCTTTTTATTCAGCGTCAGGCCGCCAACCGGGATCTGCGGAGCAATTAGATCT (double strand) [PyfdX* (yfdX-hdeDB intergenic promoter)]
- binding result ([1]; label: 5' biotin on yfdX(+) strand): binds

Sequence: AGATCTCAGATGTTTCCAAACCCATTTTCGCCAGAAGGCGCGTTTTTCTTTCGCCATTGTTATTATTTTACCTGCCACTTGTCGCCGGACGATATTCCGAGAACTCACCTTAATAAGAGCAGATTAATCGTTTGCATTTTTTTTAACAGCAGACCGCGCTGAAGCAAGTGAACGCCCGTTCCTACAGCTGTCATCCAGCTATGCAAATATATTCGTCTGGCTCAGCTCCACAATATTTCCCTGGCCCAAAACGATTTGTGTTACAATTACGCCTTATAACGGCATCGATAAAAATAACCCCCGCCGCACCTGCACCAGGCATCGCCCTTCTTTTTTCATATCAGGATTTACGCCCCCATGAATGCGATAATCGGATCCGTC (double strand) [PhdeB1 (unlabeled competitor)]
- binding result ([2]; 300-fold unlabeled vs PhdeB1*): binds
- binding result ([2]; excess unlabeled vs PyfdX*): binds

Sequence: AGATCTCAGATGTTTCCAAACCCATTTTCGCCAGAAGGCGCGTTTTTCTTTCGCCATTGTTATTATTTTACCTGCCACTTGTCGCCGGACGATATTCCGAGAACTCACCTTAATAAGAGCAGATTAATCGTTTGCATTTTTTTTAACAGCAGACCGCGCTGAAGCAAGTGAACGCCCGTTCCTACAGCTGTCATCCAGCTATGCAAATATATTCGTCTGGCTCAGCTCCACAATATTTCCCTGGCCCAAAACGATTTGTGTTACAATTACGCCTTATAACGGCATCGATAAAAATAACCCCCGCCGCACCTGCACCAGGCATCGCCCTTCTTTTTTCATATCAGGATTTACGCCCCCATGAATGCGATAATCGGATCCGTC (double strand) [PhdeB1* (kvhAS-hdeB1 intergenic promoter)]
- binding result ([1]; label: 5' biotin on hdeB1(-) strand): binds

Sequence: GGATCCGCTATCTGTTGCCCATACCGGAGAGGTACTCATCATGGTTGCCAGCAGGCTCGCCAGAATGACTTTTTTCATCGTTGACTCCTGATTAAAATCGGTAAGCATCACCAAACGCAGCCAGCTTAAAAAATATCGTGGGCATTGAGAATCAGAGCCCGGAAGTAATATTGCGGGCCTGGTCTGACAGCTGTCAGACCAGGCGTATAAAGTGGCCTCGGCGCTCTTATTTACGCCTGCCGATCGCGCGGCCTACTATTTTCCTCAGACCTTTCTTTTGGCCCGCTGAATAAACCCTCACGCTTTTTATTCAGCGTCAGGCCGCCAACCGGGATCTGCGGAGCAATTAGATCT (double strand) [PyfdX (unlabeled competitor)]
- binding result ([2]; 300-fold unlabeled vs PyfdX*): binds

For at least one entry, the source does not settle the construct or the ends of the probe.
